B1: RAC-alpha serine/threonine-protein kinase (Homo sapiens), P31749 (parent)
chain: MSDVAIVKEGWLHKRGEYIKTWRPRYFLLKNDGTFIGYKERPQDVDQREAPLNNFSVAQCQLMKTERPRPNTFIIRCLQWTTVIERTFHVETPEEREEWTTAIQTVADGLKKQEEEEMDFRSGSPSDNSGAEEMEVSLAKPKHRVTMNEFEYLKLLGKGTFGKVILVKEKATGRYYAMKILKKEVIVAKDEVAHTLTENRVLQNSRHPFLTALKYSFQTHDRLCFVMEYANGGELFFHLSRERVFSEDRARFYGAEIVSALDYLHSEKNVVYRDLKLENLMLDKDGHIKITDFGLCKEGIKDGATMKTFCGTPEYLAPEVLEDNDYGRAVDWWGLGVVMYEMMCGRLPFYNQDHEKLFELILMEEIRFPRTLGPEAKSLLSGLLKKDPKQRLGGGSEDAKEIMQHRFFAGIVWQHVYEKKLSPPFKPQVTSETDTRYFDEEFTAQMITITPPDQDDSMECVDSERRPHFPQFSYSASGTA
partner: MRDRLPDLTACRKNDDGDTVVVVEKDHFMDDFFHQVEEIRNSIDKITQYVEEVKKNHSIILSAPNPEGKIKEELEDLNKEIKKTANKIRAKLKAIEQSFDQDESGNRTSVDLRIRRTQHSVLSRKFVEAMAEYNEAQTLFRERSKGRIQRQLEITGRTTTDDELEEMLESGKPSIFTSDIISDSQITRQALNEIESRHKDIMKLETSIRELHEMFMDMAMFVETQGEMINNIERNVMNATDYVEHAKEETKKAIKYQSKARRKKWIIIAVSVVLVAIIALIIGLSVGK

Variants of: B1
Settings: with stx2_human STX2, P32856

Row | Variant | effect of a mutation on the interaction
1 | E17K | with no effect
